Reference: PubChem BioAssay AID624099 (ICCB-Longwood, 2012)

- Assay: 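Knock-downs relieving repression by E2 of an HPV18 LCR luciferase reporter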 (primary screen)
- System: human C33A cervical carcinoma cells (HPV-negative) stably expressing BPV1 E2 and an HPV18 LCR luciferase reporter
- Knock-down reagent: siRNA pool against human genes, 40 nM
- Timing: 72 h
- Read-out: 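Per-well luciferase luminescence, z-scored on each plate against the plate mean and SD with control wells left out, then averaged across three replicate plates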
- Direction: mean z-score and z-score: higher = stronger reporter signal, weaker E2 silencing
- Hit rule: 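Mean z ≥ 2 together with z ≥ 2 in two or more of the three replicates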
The whole screen tested about 21,000 reagents; shown is an unselected part. Over the whole deposit, 497 (2.4%) are marked active. 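Higher z means weaker E2 silencing; only reporter increases were scored, and knock-downs that hurt cell survival may mask genuine repressor factors.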 Reagents against one gene are numbered here.

no.	target gene	reagent no.	mean z-score	z-score, replicate A	z-score, replicate B	z-score, replicate C	Call
1	LGMN	1	1.15	1.22	1.04	1.19	inactive
2	RLN3	1	1.11	0.91	1.4	1.03	inactive
3	TBCA	1	-0.23	0.19	-0.22	-0.65	inactive
4	GC	1	0.04	-0.12	-0.22	0.45	inactive
5	SLC26A9	1	0.24	0.22	0.3	0.2	inactive
6	SUPT20HL2	1	-0.85	-1.04	-0.99	-0.52	inactive
7	SUPT20HL2	2	-0.97	-1.1	-0.9	-0.9	inactive
8	RBM38	1	0.66	0.63	0.75	0.59	inactive
9	EEF1DP1	1	-0.27	-0.46	-0.29	-0.06	inactive
10	PELP1	1	0.68	0.75	0.81	0.47	inactive
11	GFRA2	1	-1.32	-1.53	-1.21	-1.21	inactive
12	COL26A1	1	-0.46	-0.59	-0.3	-0.48	inactive
13	L1CAM	1	-0.63	-0.26	-0.82	-0.81	inactive
14	C9	1	-0.76	-0.75	-0.67	-0.84	inactive
15	DBNDD2	1	0.44	0.54	0.1	0.67	inactive
16	KIF18A	1	-0.43	-0.35	-0.43	-0.51	inactive
17	WTAP	1	-0.27	0	-0.19	-0.63	inactive
18	SLC26A11	1	1.27	1.37	0.92	1.52	inactive
19	C21orf58	1	0.92	0.93	1.03	0.8	inactive
20	PINK1	1	-0.56	-0.73	-0.65	-0.3	inactive
21	ZNF621	1	1.86	2.07	1.92	1.6	inactive
22	PABIR1	1	0.08	0.34	-0.2	0.1	inactive
23	PFDN2	1	-0.34	-0.23	-0.34	-0.46	inactive
24	HACD4	1	1.63	1.93	1.39	1.57	inactive
25	RMND5B	1	-0.76	-0.81	-0.56	-0.9	inactive
26	NUDT9	1	1.79	1.56	1.8	2.02	inactive
27	EDEM3	1	0.22	-0.08	0.6	0.14	inactive
28	ZNF184	1	-0.95	-0.88	-0.84	-1.13	inactive
29	SNU13	1	-1.73	-1.58	-1.91	-1.68	inactive
30	SPRR1B	1	0.37	0.29	0.34	0.46	inactive
31	SRSF5	1	-0.32	-0.3	-0.39	-0.27	inactive
32	TAF6	1	-1.05	-1.07	-1	-1.07	inactive
33	CUL2	1	-2.01	-1.99	-2	-2.03	inactive
34	IL12RB1	1	2.86	2.87	3.07	2.64	active
35	SLC7A1	1	0.96	0.93	0.8	1.14	inactive
36	NKX3-2	1	1.36	1.1	1.13	1.85	inactive
37	KRT28	1	0.1	0.47	-0.06	-0.12	inactive
38	LOC388814 (retired record)	1	-1.11	-1.12	-0.76	-1.44	inactive
39	OXT	1	0.85	0.92	0.61	1.02	inactive
40	ZFYVE9	1	0.71	0.66	0.97	0.49	inactive
41	MEGF6	1	1.29	1.56	1.31	0.99	inactive
42	PAX9	1	1.1	0.94	1.17	1.18	inactive
43	FBXO3	1	1.24	1.03	1.3	1.39	inactive

Continued; the last 2 above are carried over.
no.	target gene	reagent no.	mean z-score	z-score, replicate A	z-score, replicate B	z-score, replicate C	Call
42	PAX9	1	1.1	0.94	1.17	1.18	inactive
43	FBXO3	1	1.24	1.03	1.3	1.39	inactive
44	MAP3K21	1	-0.15	-0.03	0.16	-0.59	inactive
45	MBP	1	1.48	1.38	1.56	1.51	inactive
46	DLEU1	1	-0.34	-0.47	-0.17	-0.39	inactive
47	LOC390468 (retired record)	1	-0.98	-1.22	-1.07	-0.65	inactive
48	KIF2B	1	-0.62	-0.53	-0.6	-0.74	inactive
49	MLX	1	-1.08	-1.03	-0.91	-1.32	inactive
50	OR5H15	1	-0.17	0.04	-0.04	-0.51	inactive
51	PTOV1	1	1.4	1.29	1.42	1.48	inactive
52	RPS3AP21	1	0.16	0.14	-0.01	0.35	inactive
53	RPS3AP21	2	-0.16	-0.14	-0.14	-0.21	inactive
54	ADAM19	1	-0.23	-0.24	-0.39	-0.07	inactive
55	TOMM40L	1	1.72	1.73	1.52	1.91	inactive
56	SAMD7	1	0.19	0.13	0.21	0.24	inactive
57	AKAP4	1	-0.19	-0.15	-0.24	-0.18	inactive
58	WWC2-AS2	1	0.32	0.2	0.8	-0.03	inactive
59	RUNX1	1	-0.65	-0.69	-0.64	-0.62	inactive
60	CFAP263	1	-2.05	-2.1	-2.33	-1.71	inactive
61	FAM9A	1	-0.77	-0.59	-1	-0.71	inactive
62	ARF4	1	-0.36	-0.27	-0.34	-0.47	inactive
63	RBMY1J	1	0.03	0.06	-0.11	0.15	inactive
64	KIF13A	1	1.13	1.3	1.26	0.83	inactive
65	FAM50A	1	1.34	1.17	1.16	1.68	inactive
66	NIBAN3	1	-1.18	-0.95	-1.51	-1.07	inactive
67	CCT6B	1	2.04	2.16	2.16	1.81	active
68	EPCIP	1	0.04	0.24	0.31	-0.42	inactive
69	GJA9	1	-0.16	-0.69	0.02	0.18	inactive
70	MRPL48	1	0.84	0.92	0.83	0.77	inactive
71	PITPNM2	1	-0.46	-0.81	-0.77	0.2	inactive
72	ZNF213	1	-0.05	-0.09	-0.11	0.04	inactive
73	C10orf67	1	-0.25	-0.52	-0.37	0.13	inactive
74	C10orf67	2	1.22	1.28	1.23	1.16	inactive
